According to publication PMC9587031, “Antibiotic polymyxin arranges lipopolysaccharide into crystalline structures to solidify the bacterial membrane” (Nature Communications, 2022):

Columns and labels:
[1] = system: E. coli K-12 MG1655 MCR-1 bacteria; assay: In-cell solid-state 31P-NMR T1ρ relaxation; format: cell-based, Escherichia coli; conditions: 31P ssNMR, intact cells, n = 1; untreated 3.7, 4, 4.6
[2] = system: E. coli K-12 MG1655 WT bacteria; assay: In-cell solid-state 31P-NMR T1ρ relaxation; format: cell-based, Escherichia coli; conditions: 31P ssNMR, intact cells

Polymyxin E
T1ρ, gel phase lipids, MCR1 + colistin [1]: 2.7 ms
T1ρ, gel phase lipid, WT + colistin ([2]; 0.5 μg/ml colistin 2 h room temperature, 280 K, first listed value, untreated 2.6 ms, listed as Colistin): 4 ms
T1ρ, gel phase lipid, WT + colistin ([2]; 0.5 μg/ml colistin 2 h room temperature, 280 K, first listed value, untreated 2.6 ms, listed as polymyxin E): 4.0 ms
T1ρ, isotropic phosphates, WT + colistin ([2]; first listed value of source data, untreated 10.2): 26.6 ms
T1ρ, gel phase lipid, WT + colistin ([2]; second listed value of source data, untreated 2): 3 ms
